Source: PMC7867234
Where a protein sequence is shown, tags need not be part of it. The exact form of at least one protein or probe is not confirmed.

Biological target: T1, OmpR-His6 (Yersinia enterocolitica Ye9) (UniProt P74982)
T1 sequence (looked up): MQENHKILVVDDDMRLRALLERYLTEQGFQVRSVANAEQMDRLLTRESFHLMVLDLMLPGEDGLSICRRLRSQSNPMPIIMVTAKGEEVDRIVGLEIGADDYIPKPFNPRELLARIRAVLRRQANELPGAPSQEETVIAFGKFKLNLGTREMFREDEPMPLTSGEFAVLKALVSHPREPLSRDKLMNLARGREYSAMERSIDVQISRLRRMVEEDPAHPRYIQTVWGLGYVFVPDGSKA
Experiment: EMSA
Conditions: 50 mM Tris-HCl pH 8.0, 100 mM KCl, 1 mM EDTA, 1 mM DTT, 20 mM MgCl2, 12% glycerol, 100 ug/mL BSA, 0.1% Triton X-100, 22 C, 15 min, 0.05 or 0.3 pmol DNA in 10 uL, recombinant protein, residues 1-239, protein details: N-terminal His6, probe letters rebuilt from the primers and the genome

[1] = 304-bp 16S rDNA present, fewer complexes than F1234, at 1.31 uM

“CGTTGCTTCTATCCCTCTGGTTATACTCTGTTAAGCCACCCACAGATCCGCACTTTCATCCGTGCAAAATGAAAATAAACTGCTACAAATTTGTAACCTTATACTTTGCAGTCATATACTTAAATTATGCAACAATCCCATTCATCAATACATTGCATGATTAATCGGGCAAAGTGTGCAATTATATCTTTGTTAACAACCACGGTTTTCATTTGGGGCTAGCAGTTCTATAATGAGACGCAATTGAGAATATTGCGCCACGGATGTCATAGGCTGAACAGCCTTAATTTGAATCGATAGTAACAGGACTGAATCCGCATG (double strand) [F234]”: binds [1].

“GCGGAATCTGTCCTGTTACTAAGCGGTTCACTTCATTAGAAGAAGTGACAGAATTTGCTCTTGAGATAATGCGTATCATTATAGAATTGCCACGCCTAAATGAAAACCACAAGTCCCTGGCAAATATTGTTAATAAAAACGTGGCACAGCTTACATTTACAACGGCAAGGCCACTTGAACACCGGGACATTGTACAGGTACAACAGCAAAAGTTACAAATTTGTAGCAATTATTTTGATTGGCATTATCTATTAATACGGCGTAGACATGAGTCTACGCCGCATCACA (double strand) [FEc]”: binds (211-bp 16S rDNA present, complexes from 0.65 uM, multiple bands up to 3.9 uM).

“TGACAAATGAGCGCGTTGAAGCTTGGGTAAAACAGATCAGCGAAGAACTGAATCTGGCCGAAATTACCGGTTAATTTGTCATGTCGGAAACGCGAGGATGAAATTTAATATTGCCACGCGTTTCCGTTGCTTCTATCCCTCTGGTTATACTCTGTTAAGCCACCCACAGATCCGCACTTTCATCCGTGCAAAATGAAAATAAACTGCTACAAATTTGTAACCTTATACTTTGCAGTCATATACTTAAATTATGCAACAATCCCATTCATCAATACATTGCATGATTAATCGGGCAAAGTGTGCAATTATATCTTTGTTAACAACCACGGTTTTCATTTGGGGCTAGCAGTTCTATAATGAGACGCAA (double strand) [F123]”: binds [1].

“TGACAAATGAGCGCGTTGAAGCTTGGGTAAAACAGATCAGCGAAGAACTGAATCTGGCCGAAATTACCGGTTAATTTGTCATGTCGGAAACGCGAGGATGAAATTTAATATTGCCACGCGTTTCCGTTGCTTCTATCCCTCTGGTTATACTCTGTTAAGCCACCCACAGATCCGCACTTTCATCCGTGCAAAATGAAAATAAACTGCTACAAATTTGTAACCTTATACTTTGCAGTCATATACTTAAATTATGCAACAATCCCATTCATCAATACATTGCATGATTAATCGGGCAAAGTGTGCAATTATATCTTTGTTAACAACCACGGTTTTCATTTGGGGCTAGCAGTTCTATAATGAGACGCAATTGAGAATATTGCGCCACGGATGTCATAGGCTGAACAGCCTTAATTTGAATCGATAGTAACAGGACTGAATCCGCATG (double strand) [F1234]”: binds (four shifted bands from 0.65 to 3.25 uM, with or without 304-bp 16S rDNA).
